Measurements: patent US20140328795A1, “VIRUCIDAL SMALL MOLECULE AND USES THEREOF” (The Texas A&M University System, priority 2012, published 2014)

How the values were obtained:
HIV-1 (NL4.3) = experiment: Drug resistance study
primary HIV-1 isolates = experiment: HIV-1 infectivity assay in TZM-bl cells (β-galactosidase); format: cell-based; conditions: CC50 from human cell lines

For N=C1Sc2ccccc2C2=NCCCN12 [PD, PD 404,182], the “emergence of PD-resistant HIV-1 variants” value (HIV-1 (NL4.3); TZM-bl cells passaged with 1, 5 and 10 μM PD for 60 days) was “No PD-resistant variants could be detected”, the “emergence of PD-resistant HIV-1 variants” value (HIV-1 (NL4.3); freshly activated human PBMCs (2 donors), 12 days (data not shown)) was “no emergence of viral resistance was observed” and the selectivity / therapeutic index (CC50/IC50) (primary HIV-1 isolates) was > 300.
